For at least one entry, the source does not settle the construct or the ends of the probe.
Columns and labels:
RctB + ParB2 = test: DNase I footprinting; conditions: 100 ng ParB2 plus RctB, additive protection; footprint: 20 mM Tris-Cl pH 8.0, 125 mM NaCl, 1 mM DTT, room temperature; recombinant protein; protein details: His6 (C-terminal, RctB-His6),His6 (ParB2-His6); label: 5'-32P; probe letters rebuilt from the primers and the genome
RctB (Vibrio cholerae) [1] = test: DNase I footprinting; conditions: scattered protection at 40-80 ng, broad at 160-640 ng; footprint: 20 mM Tris-Cl pH 8.0, 125 mM NaCl, 1 mM DTT, room temperature; recombinant protein; residues 1-658; protein details: His6 (C-terminal, RctB-His6); label: 5'-32P; probe letters rebuilt from the primers and the genome
ParB2 (Vibrio cholerae) = test: DNase I footprinting; conditions: 100 ng ParB2, hypersensitive sites; footprint: 20 mM Tris-Cl pH 8.0, 125 mM NaCl, 1 mM DTT, room temperature; recombinant protein; protein details: His6 (ParB2-His6); label: 5'-32P; probe letters rebuilt from the primers and the genome
RctB (Vibrio cholerae) [2] = test: EMSA; conditions: EMSA: 20 mM Tris-Cl pH 7.5, 1 mM EDTA, 150 mM NaCl, 12.5 ug/mL poly(dI-dC), 0.1 mg/mL BSA, 10 min room temperature; recombinant protein; residues 1-658; protein details: His6 (C-terminal, RctB-His6); label: 32P 5' end; probe letters rebuilt from the primers and the genome; part of a longer molecule
[3] = test system: RctB[ΔC159] del500-658 (Vibrio cholerae); test: EMSA; conditions: affinity similar to wild type, more multimeric complexes; EMSA: 20 mM Tris-Cl pH 7.5, 1 mM EDTA, 150 mM NaCl, 12.5 ug/mL poly(dI-dC), 0.1 mg/mL BSA, 10 min room temperature; recombinant protein; residues 1-499; protein details: His6 (C-terminal); label: 32P 5' end; probe letters rebuilt from the primers and the genome; part of a longer molecule

Sequence | binding result (RctB + ParB2) | binding result (RctB (Vibrio cholerae) [1]) | binding result (ParB2 (Vibrio cholerae)) | binding result (RctB (Vibrio cholerae) [2]) | binding result [3]
CGTTTAAATAACCCACATATTCTTCGATAAGGAGAAAACATTTTAAATATTACAGTGTCACTTATTTACAATGTAAAGCCACACTTTGAAGCAATGATGAAGAAATAAAAGCGAGCAGTAAGCGGAACGATTAAACCGAGCCACTAAGTTACGGTGAATGCCATTCTGATTGAAATGATGCGCAGGATTCAAGCAAGATGAGAAAATGCCTATCTTTCCTCCAGCGAATAGGTAT (double strand) [rctA footprint probe] | binds | binds | binds | – | –
GATCCGTATCACACTTACCGTAATATCACTATAGTTCCAAGAGAATAAAGAAAAAGAGATCATAAATAAAGAAAAATTTGTTGTTTTTAAATAACTGATCTTTCTGATTTAAATGATTAAATATGATTAGAGTGATCTAATGATCTGTGACGATTTTTAGTTCTAATTTATTGTAATTAAAAGAGATTGTTTTTAGCCATTCAGAAGCATGATCATGTATTGATGGAAACCATGATCAATACAAGATCGAAAGCATGATCATTTGTTCCTCTAAGCATGATCATCAGTCAACAGAATCAATGATCAATGTAAGCTTCTAAGCATGATCAAGGTGCTCACACAGTTTATCCACAACCTGAGTG (double strand) [oriCII EMSA probe] | – | – | – | binds | binds

— PMC3141006
